Experimental data: article PMC7449455 (PLoS Neglected Tropical Diseases, 2020)
Several values for one entry are separate records, joined by “and”; a condition that tells them apart may be missing. Identical values can stand only once. Counter-ions that a name gives are not always drawn.

System: HepG2 cell line
Experiment: Cytotoxicity in HepG2 cells (CellTiter-Glo)
Format: cell-based, human
Settings: ratio CC50 HepG2 / EC50 L. major EVC
Method: To determine compound toxicity we used the HepG2 cell line (human hepatocellular carcinoma, ATCC HB-8065) as a widely used cell-based assay. The cells were maintained in MEM (Gibco) supplemented with 5% heat-inactivated FBS, 1 mM Sodium pyruvate (Gibco) and 1X MEM amino acids solution (Sigma). Briefly, cells were added to white-bottomed 96-well plates containing 100 μL of serial 2-fold dilutions of the H1RAs. After 24 hours of culture at 37 °C, the percentage of viable cells was determined by ATP quantification using the CellTiter-Glo luminescent Cell Viability Assay (Promega) according to the manufacturer’s instructions. […] At least three different assays were carried out to determine the IVTI of each compound, which was calculated as the ratio between the CC50 obtained in the HepG2 cell line and the EC50 determined in the L. major EVC [21]. To evaluate the cytotoxicity of AZ and FX in peritoneal macrophages, adherent cells obtained from peritoneal lavage of naïve mice (10,000/well) were exposed during 24 hours at 37°C to serial drug concentrations (0.09 μM—200 μM). Cell viability was determined by CellTiter-Glo (Promega).

SMILES: CCCCCCCCCCCCCCCCOP(=O)([O-])OCC[N+](C)(C)C [Miltefosine]
- IVTI (in vitro therapeutic index): 43

SMILES: C[C@@H]1[C@H](O)[C@@H](C)/C=C/C=C/C=C/C=C/C=C/C=C/C=C/[C@H](O[C@@H]2O[C@H](C)[C@@H](O)[C@H](N)[C@@H]2O)C[C@@H]2O[C@](O)(C[C@@H](O)C[C@@H](O)[C@H](O)CC[C@@H](O)C[C@@H](O)CC(=O)O[C@H]1C)C[C@H](O)[C@H]2C(=O)O [Amphotericin B]
- IVTI (in vitro therapeutic index): 33

SMILES: CN(C)CC[C@@H](c1ccc(Cl)cc1)c1ccccn1 [Dexchlorpheniramine maleate]
- IVTI (in vitro therapeutic index): 5

SMILES: c1ccc2c(c1)Sc1ccccc1N2CC1CN2CCC1CC2 (stereo not shown) [Mequitazine]
- IVTI (in vitro therapeutic index): 11–36 and 11

SMILES: CN1CCC(=C2c3ccccc3CC(=O)c3sccc32)CC1 [Ketotifen]
- IVTI (in vitro therapeutic index): 24

SMILES: Cc1ccc(/C(=C\CN2CCCC2)c2ccccn2)cc1 [Triprolidine]
- IVTI (in vitro therapeutic index): 35

SMILES: CN1CCCC(n2nc(Cc3ccc(Cl)cc3)c3ccccc3c2=O)CC1 (stereo not shown) [Azelastine]
- IVTI (in vitro therapeutic index): 942
